Test results from paper PMC4728507, “Bioactive Polycyclic Quinones from Marine Streptomyces sp. 182SMLY” (Marine Drugs, 2016).

How the values were obtained:
Type in all cases: cell-based
glioma U251 cells = test: SRB assay, proliferation of glioma U251 cells; conditions: IC50 human astrocytes / IC50 U251
Description: (§1) The compounds 1 and 2 were assayed for their activities inhibiting the proliferation of glioma C6, U251, U87-MG, and SHG-44 cells using the sulforhodamine B (SRB) assay. The SRB assay is a method that measures total cellular protein content for evaluating the activity of tested compounds against the proliferation of tumor cells. Doxorubicin (DOX) was used as a positive control. Glioma cells were treated with tested compounds for 72 h at different concentrations. […] N-acetyl-N-demethylmayamycin (1) and streptoanthraquinone A (2) were also assayed for their activity against normal human astrocytes (HA). The initial assay was conducted on the concentrations from 0.35 to 7.0 μM for 1 and on those from 1.65 to 16.5 μM for 2. The cell viability of HA cells from each tested concentration of both compounds was 100%. […]
(§2) The SRB assay was used to evaluate the activity of the isolated compounds in inhibiting the proliferation of glioma U87-MG, U251, SHG-44, and C6 cells. […] After dried, dye was dissolved in a 10 mM Tris buffer and measured at 515 nm on a microplate reader (BioTech, Winooski, VT, USA).

glioma U87-MG cells = test: SRB assay, proliferation of glioma U87-MG cells; conditions: IC50 human astrocytes / IC50 U87-MG
Description: as §1, §2

glioma SHG-44 cells = test: SRB assay, proliferation of glioma SHG-44 cells; conditions: IC50 human astrocytes / IC50 SHG-44
Description: as §1, §2

SMILES	Ratios of IC50HA/IC50gc, U251 (glioma U251 cells)	Ratios of IC50HA/IC50gc, U87-MG (glioma U87-MG cells)	Ratios of IC50HA/IC50gc, SHG-44 (glioma SHG-44 cells)
CC(=O)OC1c2c3c(c(O)c4c2C(Cc2c(O)cc(C)cc2-4)OC1C)C(=O)c1cccc(O)c1C3=O (stereo not drawn) [Compound 2, streptoanthraquinone A]	>31	>22	>16
CC(=O)NC1CC(c2c(O)c3c(c4c(O)cc(C)cc24)C(=O)c2cccc(O)c2C3=O)OC(C)C1O (stereo not drawn) [Compound 1, N-acetyl-N-demethylmayamycin]	35	18	6.4
